Test results reported in US7745192.

Molecular target: human prothrombin, P00734

B1: Brown snake venom protease (snake venom protease of Pseudonaja textilis, purified from the Brown sna (protein)
chain 1: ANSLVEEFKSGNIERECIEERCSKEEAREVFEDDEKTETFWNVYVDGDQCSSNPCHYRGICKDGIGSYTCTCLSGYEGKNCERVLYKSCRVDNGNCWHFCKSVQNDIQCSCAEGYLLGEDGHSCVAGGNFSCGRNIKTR
chain 2: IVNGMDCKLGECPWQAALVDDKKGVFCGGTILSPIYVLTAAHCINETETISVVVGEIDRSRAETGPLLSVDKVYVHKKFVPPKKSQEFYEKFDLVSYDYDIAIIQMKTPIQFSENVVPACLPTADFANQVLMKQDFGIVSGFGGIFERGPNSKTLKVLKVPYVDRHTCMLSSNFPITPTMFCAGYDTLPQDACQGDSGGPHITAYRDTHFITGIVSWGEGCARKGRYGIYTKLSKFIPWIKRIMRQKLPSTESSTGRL
Brown SVP (µg) giving a citrated plasma clotting time of 50 sec, alone: 11 µg
Brown SVP (µg) giving a citrated plasma clotting time of 50 sec, with Ca^2+: 0.05 µg
Brown SVP (µg) giving a citrated plasma clotting time of 70 sec, alone: 4 µg
Brown SVP (µg) giving a citrated plasma clotting time of 70 sec, with Ca^2+: 0.02 µg
Clotting time (sec) +Ca^2+, citrated plasma, Brown SVP 0.650 µg/mL: 34.7 s
Clotting time (sec) +Ca^2+, citrated plasma, Brown SVP 1.300 µg/mL: 34.5 s
Clotting time (sec) +Ca^2+, citrated plasma, Brown SVP 2.600 µg/mL: 27.6 s
Clotting time (sec) +Ca^2+, citrated plasma, Brown SVP 6.500 µg/mL: 24 s
Clotting time (sec) +Ca^2+, citrated plasma, Brown SVP 13.000 µg/mL: 23.4 s
Clotting time (sec) +Ca^2+, citrated plasma, Brown SVP 26.000 µg/mL: 18.7 s
Clotting time (sec) +Ca^2+, citrated plasma, Brown SVP 39.000 µg/mL: 14.9 s
Clotting time (sec) -Ca^2+, citrated plasma, Brown SVP 0.650 µg/mL: > 100 s
Clotting time (sec) -Ca^2+, citrated plasma, Brown SVP 1.300 µg/mL: > 100 s
Clotting time (sec) -Ca^2+, citrated plasma, Brown SVP 2.600 µg/mL: > 100 s
Clotting time (sec) -Ca^2+, citrated plasma, Brown SVP 6.500 µg/mL: 51.6 s
Clotting time (sec) -Ca^2+, citrated plasma, Brown SVP 13.000 µg/mL: 38.4 s
Clotting time (sec) -Ca^2+, citrated plasma, Brown SVP 26.000 µg/mL: 35.1 s
Clotting time (sec) -Ca^2+, citrated plasma, Brown SVP 39.000 µg/mL: 27.3 s
SDS PAGE time course of prothrombin cleavage: The prothrombin is substantially gone by the 48 hour time point
activity against S-2238 (thrombin formed from prothrombin by the protease): initial activity against S-2238 was very low and increased approximately 20 fold
approximate clotting time of human citrated plasma, Brown SVP alone: 120 s
approximate clotting time of human citrated plasma, Brown SVP with 40 mM CaCl2: 60 s
